Measured data: PubChem BioAssay AID1224833 (University of Georgia, 2016)
Here is one part, drawn at random, of about 12,000 deposited reagents. Of all reagents, about 5,600 (46%) got an active call. 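Active calls cover z-scores past 1 in both directions, so they include lowered as well as raised rotavirus replication.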

Screen: 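Human genes whose knock-down alters rotavirus replication in monkey cells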 (primary screen)
System: monkey MA104 kidney cells
Knock-down reagent: siRNA pool against human genes, 50 nM
Time to read-out: 48 h knock-down before infection; read 24 h after infection
Conditions: infection with rotavirus strain RV3 two days after transfection; infectious dose for this stage not given
Read-out: 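z-score of rotavirus antigen signal per well, from a fluorescent immunoassay, relative to non-targeting control wells on the same plate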
Scale: z-score vs non-targeting control: higher = more rotavirus replication than with non-targeting control
Rule for the call: In these data the active calls have z-score vs non-targeting control at about -1 or lower, or at about 1 or higher
Calls: active = z-score beyond 1 either way; inactive = z-score within 1 of zero

| gene knocked down | z-score vs non-targeting control | Outcome |
| --- | --- | --- |
| HDC (histidine decarboxylase) | -0.868 | inactive |
| LTB4R (leukotriene B4 receptor) | 1.65 | active |
| TBCD (tubulin folding cofactor D) | -0.897 | inactive |
| SPECC1 | -1.54 | active |
| C6orf15 (chromosome 6 open reading frame 15) | -0.466 | inactive |
| DNAJB1 (DnaJ heat shock protein family (Hsp40) member B1) | -0.45 | inactive |
| VEGFB (vascular endothelial growth factor B) | 1.07 | active |
| ZNF138 (zinc finger protein 138) | -2.25 | active |
| OR10G4 (olfactory receptor family 10 subfamily G member 4) | -1.83 | active |
| BIN1 (bridging integrator 1) | 0.313 | inactive |
| OR5H6 (olfactory receptor family 5 subfamily H member 6) | 0.113 | inactive |
| FAM20B (FAM20B glycosaminoglycan xylosylkinase) | -1.37 | active |
| ZBTB25 (zinc finger and BTB domain containing 25) | -0.979 | inactive |
| DACT3 (dishevelled binding antagonist of beta catenin 3) | -0.767 | inactive |
| RAB11FIP5 (RAB11 family interacting protein 5) | -0.192 | inactive |
| BCL2L2 (BCL2 like 2) | 2.88 | active |
| ATP12A (ATPase H+/K+ transporting non-gastric alpha2 subunit) | -1.11 | active |
| LINC03040 (long independently transcribed non-coding RNA 3040) | -1.37 | active |
| DGCR6L (DiGeorge syndrome critical region gene 6 like) | -1.31 | active |
| ATP5F1D (ATP synthase F1 subunit delta) | 1.48 | active |
| FAM120C (family with sequence similarity 120 member C) | -0.741 | inactive |
| SULT2A1 (sulfotransferase family 2A member 1) | -1.25 | active |
| LILRB3 (leukocyte immunoglobulin like receptor B3) | -1.67 | active |
| TMEM41B (transmembrane protein 41B) | -0.391 | inactive |
| LCE4A (late cornified envelope 4A) | 0.89 | inactive |
| CTBP2 (C-terminal binding protein 2) | -0.607 | inactive |
| ADGRF2P (adhesion G protein-coupled receptor F2, pseudogene) | -0.681 | inactive |
| CBX4 (chromobox 4) | 0.846 | inactive |
| TMEM14B (transmembrane protein 14B) | 2.46 | active |
| ARRB1 (arrestin beta 1) | -1.85 | active |
| BCDIN3D (BCDIN3 domain containing RNA methyltransferase) | 1.01 | active |
| NOXO1 (NADPH oxidase organizer 1) | -1.05 | active |
| OTOP2 (otopetrin 2) | 1.67 | active |
| GIPC2 (GIPC PDZ domain containing family member 2) | 0.193 | inactive |
| CRYL1 (crystallin lambda 1) | 2.78 | active |
| SLC9A5 | 1.52 | active |
| E2F3 (E2F transcription factor 3) | -0.583 | inactive |
| STK11IP (serine/threonine kinase 11 interacting protein) | -2.45 | active |
| SYT9 (synaptotagmin 9) | -0.0627 | inactive |
| TAMALIN (trafficking regulator and scaffold protein tamalin) | -0.307 | inactive |
| C20orf96 (chromosome 20 open reading frame 96) | -0.309 | inactive |
| ALKAL1 (ALK and LTK ligand 1) | -0.347 | inactive |
| SERPINF2 (serpin family F member 2) | -0.379 | inactive |
| GJC1 (gap junction protein gamma 1) | -2.75 | active |
| CENPW (centromere protein W) | -0.0411 | inactive |
| PRPF40B (pre-mRNA processing factor 40B) | 0.314 | inactive |
| RAB3GAP1 (RAB3 GTPase activating protein catalytic subunit 1) | 0.178 | inactive |
| ZNF274 (zinc finger protein 274) | 2.66 | active |
| CASS4 (Cas scaffold protein family member 4) | -1.02 | active |
| ACTA2 (actin alpha 2, smooth muscle) | -1.53 | active |
| ZNF573 (zinc finger protein 573) | -1.71 | active |
| DIMT1 (DIM1 rRNA methyltransferase and ribosome maturation factor) | -0.746 | inactive |
| CASP1 (caspase 1) | 1.09 | active |
| OR4B1 (olfactory receptor family 4 subfamily B member 1) | -0.456 | inactive |
| KAAG1 (kidney associated DCDC2 antisense RNA 1) | -0.178 | inactive |
| SYCP3 (synaptonemal complex protein 3) | 0.197 | inactive |
| ENTPD8 (ectonucleoside triphosphate diphosphohydrolase 8) | -2.28 | active |
| TMBIM1 (transmembrane BAX inhibitor motif containing 1) | 1.05 | active |
| OPHN1 (oligophrenin 1) | -0.832 | inactive |
| NLGN1 (neuroligin 1) | -1.4 | active |
| PAIP1 (poly(A) binding protein interacting protein 1) | -0.72 | inactive |
| MOSPD1 (motile sperm domain containing 1) | -0.296 | inactive |
| REXO4 (RNA exonuclease 4) | 0.587 | inactive |
| ESRRA (estrogen related receptor alpha) | 0.545 | inactive |
| STPG1 (sperm tail PG-rich repeat containing 1) | -1.18 | active |
| DOCK2 (dedicator of cytokinesis 2) | -1.06 | active |
| CWC25 (CWC25 spliceosome associated protein) | -1.11 | active |
| OR4A5 (olfactory receptor family 4 subfamily A member 5) | 0.992 | inactive |
| ABCB8 (ATP binding cassette subfamily B member 8) | -1.19 | active |
| MRPS27 (mitochondrial ribosomal protein S27) | -0.127 | inactive |
| TMX1 (thioredoxin related transmembrane protein 1) | -0.902 | inactive |
| NME1-NME2 (NME1-NME2 readthrough) | 1.05 | active |
| RUVBL1 (RuvB like AAA ATPase 1) | -1.22 | active |
| TERF1 (telomeric repeat binding factor 1) | -1.16 | active |
| NPPC (natriuretic peptide C) | -1.52 | active |
| OTOGL (otogelin like) | -0.558 | inactive |
| POPDC2 (popeye domain cAMP effector 2) | -1.18 | active |
| ZNF14 (zinc finger protein 14) | -0.0431 | inactive |
| FGB (fibrinogen beta chain) | -1.44 | active |
| ATP6V1E2 (ATPase H+ transporting V1 subunit E2) | 0.0154 | inactive |
| SLC45A2 | 0.495 | inactive |
| MAP7 (microtubule associated protein 7) | -0.59 | inactive |
| OR10K2 (olfactory receptor family 10 subfamily K member 2) | -1.1 | active |
| NDUFA13 (NADH:ubiquinone oxidoreductase subunit A13) | 0.855 | inactive |
| OR7G3 (olfactory receptor family 7 subfamily G member 3) | -0.807 | inactive |
| ZFP28 (ZFP28 zinc finger protein) | 0.784 | inactive |
| POLR2B (RNA polymerase II subunit B) | -1.68 | active |
| FAM220A (family with sequence similarity 220 member A) | -0.556 | inactive |
| DESI1 (desumoylating isopeptidase 1) | -0.277 | inactive |
| LAGE3 (L antigen family member 3) | -0.0753 | inactive |
| MRPL13 (mitochondrial ribosomal protein L13) | 0.0473 | inactive |
| CASQ2 (calsequestrin 2) | -0.156 | inactive |
| BRMS1L (BRMS1 like transcriptional repressor) | -0.854 | inactive |
| COIL (coilin) | -0.0261 | inactive |
| TMEM147 (transmembrane protein 147) | -0.0063 | inactive |
| SMN1 (survival of motor neuron 1, telomeric) | -1.07 | active |
| TBPL2 (TATA-box binding protein like 2) | -1.71 | active |
| DTWD1 (DTW motif tRNA-uridine aminocarboxypropyltransferase 1) | 2.18 | active |
| KLRG2 (killer cell lectin like receptor G2) | 0.966 | inactive |
| BEST2 (bestrophin 2) | -1.02 | active |
| NUBP2 (NUBP iron-sulfur cluster assembly factor 2, cytosolic) | 0.819 | inactive |
| FRG2 (FSHD region gene 2) | 0.149 | inactive |
| HMGA2 (high mobility group AT-hook 2) | 0.704 | inactive |
| SEC61A1 (SEC61 translocon subunit alpha 1) | -1.34 | active |
| MUCL1 (mucin like 1) | -1.99 | active |
| PURB (purine rich element binding protein B) | 1.33 | active |
| ZNF501 (zinc finger protein 501) | -0.0337 | inactive |
| CD44 (CD44 molecule (IN blood group)) | 0.414 | inactive |
| ANKRD26 (ankyrin repeat domain 26) | -1.45 | active |
| ABLIM3 (actin binding LIM protein family member 3) | -1.51 | active |
| ABCB11 (ATP binding cassette subfamily B member 11) | -0.971 | inactive |
| HSPBP1 (HSPA (Hsp70) binding protein 1) | 0.168 | inactive |
| TMEM176B (transmembrane protein 176B) | -2.99 | active |
| APOBEC3H (apolipoprotein B mRNA editing enzyme catalytic subunit 3H) | -0.321 | inactive |
| LRRC59 (leucine rich repeat containing 59) | -0.635 | inactive |
| THADA (THADA armadillo repeat containing) | 0.765 | inactive |
| IL12RB1 (interleukin 12 receptor subunit beta 1) | 1.22 | active |
| UFC1 (ubiquitin-fold modifier conjugating enzyme 1) | 1.8 | active |
| MYT1 (myelin transcription factor 1) | -1.61 | active |
| SPANXA1 | -0.676 | inactive |
| PBX3 (PBX homeobox 3) | -0.966 | inactive |
| CST5 (cystatin D) | -2.05 | active |
| ZNF391 (zinc finger protein 391) | -1.4 | active |
| CERS5 (ceramide synthase 5) | -0.907 | inactive |
| DMBT1 (deleted in malignant brain tumors 1) | -1.96 | active |
| PANX1 (pannexin 1) | -2.42 | active |
| BTBD7 (BTB domain containing 7) | 0.0873 | inactive |
| DDX18 (DEAD-box helicase 18) | 0.51 | inactive |
| ARHGEF19 (Rho guanine nucleotide exchange factor 19) | -0.842 | inactive |
| HYDIN (HYDIN axonemal central pair apparatus protein) | -0.782 | inactive |
| MUC17 (mucin 17, cell surface associated) | -2.8 | active |
| LLGL1 (LLGL scribble cell polarity complex component 1) | -1.95 | active |
| UNC93B1 (unc-93B1 regulator of TLR signaling) | -2.13 | active |
| CA4 (carbonic anhydrase 4) | -1.93 | active |
| MARCKS (myristoylated alanine rich protein kinase C substrate) | -0.659 | inactive |
| SPATA1 (spermatogenesis associated 1) | -1.24 | active |
| AIF1L (allograft inflammatory factor 1 like) | -0.388 | inactive |
| SLF2 (SMC5/6 complex localization factor 2) | -1.01 | active |
| KNDC1 (kinase non-catalytic C-lobe domain containing 1) | 1.68 | active |
| PLBD1 (phospholipase B domain containing 1) | -1.01 | active |

Laid out differently: 11 of the entries above
SLC45A2 | z-score vs non-targeting control = 0.495; Outcome = inactive
MAP7 (microtubule associated protein 7) | z-score vs non-targeting control = -0.59; Outcome = inactive
OR10K2 (olfactory receptor family 10 subfamily K member 2) | z-score vs non-targeting control = -1.1; Outcome = active
NDUFA13 (NADH:ubiquinone oxidoreductase subunit A13) | z-score vs non-targeting control = 0.855; Outcome = inactive
OR7G3 (olfactory receptor family 7 subfamily G member 3) | z-score vs non-targeting control = -0.807; Outcome = inactive
ZFP28 (ZFP28 zinc finger protein) | z-score vs non-targeting control = 0.784; Outcome = inactive
POLR2B (RNA polymerase II subunit B) | z-score vs non-targeting control = -1.68; Outcome = active
FAM220A (family with sequence similarity 220 member A) | z-score vs non-targeting control = -0.556; Outcome = inactive
DESI1 (desumoylating isopeptidase 1) | z-score vs non-targeting control = -0.277; Outcome = inactive
LAGE3 (L antigen family member 3) | z-score vs non-targeting control = -0.0753; Outcome = inactive
MRPL13 (mitochondrial ribosomal protein L13) | z-score vs non-targeting control = 0.0473; Outcome = inactive
